Pooled drug test results. Numbers come from NIAID ChemDB, via PubChem.

All rows: tests in culture; agent: HIV-1; read-out: EC50

Blank or dashed fields: not listed here.

SMILES,cells,changes,strain,method,conditions,result
CO[P@](=O)(c1cc(C)cc(/C=C/C#N)c1)c1c(C(N)=O)[nH]c2ccc(Cl)cc12,U-937,-,IIIB,-,-,0.0005 µM
Cc1cn([C@H]2C=C[C@@H](COP(=O)(Nc3cc(C(=O)NCCC(=N)N)n(C)c3)OC(C)C)O2)c(=O)[nH]c1=O,CEM/TK-,-,-,syncytia,-,2.13 µM
Cc1nc2ccccc2n1C1C[C@H]2CC[C@@H](C1)N2CCC(CN(C)S(=O)(=O)c1ccccc1)c1ccccc1,HOS-CD4-CCR5,-,-,luciferase,-,<0.01 µM
O=C(O)c1cc(O)c(O)c(O)c1,MOLT-3,-,IIIB,syncytia,-,<5 µg/mL
Cc1cn([C@H]2C[C@H](N=[N+]=[N-])[C@@H](COC(=O)C(=O)N3CCCC3C(=O)N[C@@H](Cc3ccccc3)C(=O)OCc3ccccc3)O2)c(=O)[nH]c1=O,MOLT-4 (HIV-1 IIIB) / M8166 + MOLT-4,-,IIIB,syncytia,-,>150 µM
Cc1cn([C@H]2C[C@H](N=[N+]=[N-])[C@@H](COP(=O)(OCCCCCCCCN(C)CCN(C)C)OC[C@H]3OC(O)[C@H](O)[C@@H](O)[C@@H]3O)O2)c(=O)[nH]c1=O,CEM + CEM-4,-,LAI,cytopathic effect / MTT,-,0.07 µM
N#CC[C@H](C1CCCC1)n1cc(-c2ncnc3[nH]ccc23)cn1,Primary T lymphocytes,L74V,-,p24 / ELISA,-,0.1 µM
CC(C)Oc1ccc(OC(C)C)c2c1-c1nc3nc(nc4[nH]c(nc5[nH]c(nc-2n1)c(SCCCC(=O)O)c5SCCCC(=O)O)c(SCCCC(=O)O)c4SCCCC(=O)O)C(SCCCC(=O)O)=C3SCCCC(=O)O,MAGI,-,IIIB,β-galactosidase,-,<5 µg/mL
Cc1cn([C@H]2C=C[C@@H](CO)O2)c(=O)[nH]c1=O,MM + M/M,-,BaL,antigen,-,0.2 µM
CC(=O)CCCCn1c(=O)c2c(ncn2C)n(C)c1=O,A3.5,-,IIIB,p24,-,>1000 µM
Cc1cc(S(N)(=O)=O)ccc1NC(=O)COc1ccc(Cl)cc1C(=O)c1cc(Cl)cc(C#N)c1,MAGI,RT-V106I E138K P236L,NNRTI-resistant (RT V106I E138K P236L),β-galactosidase,-,0.086 µM
CCCc1cc(=O)oc2c3c(c4c(c12)OC(C)(C)C=C4)O[C@@H](C)[C@H](C)[C@@H]3O,CEM + CEM-SS,RT-D67N K70R L100I T215Y K219Q,NL4-3(RT-4XAZT+L100I),XTT,-,3 µM
Cc1cn([C@H]2C[C@H](N=[N+]=[N-])[C@@H](CO)O2)c(=O)[nH]c1=O,HUT/CCR5 + HUT,-,BaL,p24,3 d,<0.5 µM
O=c1[nH]cnc2c1ncn2[C@H]1CC[C@@H](CO)O1,PBL (activated) + PBL,-,SF162 R5,RT activity,-,9 µM
Nc1nc(N)c2ncn(C[C@@H](CO)OCP(=O)(O)O)c2n1,C3,-,LAV,RT activity,-,2.3 µM
Cc1cn([C@H]2C[C@H](N=[N+]=[N-])[C@@H](CO)O2)c(=O)[nH]c1=O,PBL(PHA STIM.) + PBL,-,CD 451,p24 / ELISA,-,<0.2 µM
CC(C)=CCOc1cc(NC(=S)c2ccoc2C)ccc1Cl,MOLT,-,HE,cytopathic effect,-,0.008 µg/mL
Cc1cn([C@H]2C[C@H](N=[N+]=[N-])[C@@H](CO)O2)c(=O)[nH]c1=O,PBL (activated) + PBL,-,IIIB,RT activity,-,<0.033 µM
Nc1ccn([C@@H]2CS[C@H](CO)O2)c(=O)n1,Primary T lymphocytes,K65R,-,p24 / ELISA,-,2.5 µM
O=C(Nc1cc(S(=O)(=O)O)cc2cc(S(=O)(=O)O)c(N=Nc3ccc(N=Nc4c(S(=O)(=O)O)cc5cc(S(=O)(=O)O)cc(NC(=O)c6cccc(Cl)c6Cl)c5c4O)cc3)c(O)c12)c1ccc(Cl)cc1Cl,MONO/MACRO + Monocytes/macrophages,-,SF162,-,-,0.16 µg/mL
CCCN(C)C(=O)Oc1nsnc1-c1c(Cl)ccc(N)c1Cl,MAGI,RT-K103N,IIIB,MTT,-,0.045 µM
CC(=N)CCNC(=O)c1cc(NC(=O)c2cc(NC(=O)c3cc(NP(=O)(OC[C@@H]4C=C[C@H](n5cc(C)c(=O)[nH]c5=O)O4)OC4CCCCC4)cn3C)cn2C)cn1C,CEM/TK-,-,-,syncytia,-,0.77 µM
Cc1cn([C@H]2C[C@H](N=[N+]=[N-])[C@@H](CO)O2)c(=O)[nH]c1=O,PBMC,RT-K20R D67N K103N T215Y,X165-9 Clinical isolate ZDV-resistant,p24,-,0.9 µM
CC(C)=CCN1Cc2cccc3[nH]c(=S)n(c23)C[C@@H]1C,U-937,-,IIIB,cytopathic effect / XTT,-,0.17 µM
CCCc1cc(=O)oc2c3c(c4c(c12)OC(C)(C)C=C4)O[C@H](C)[C@@H](C)[C@@H]3O,CEMx174 + CEM,-,IIIB,XTT,-,0.5 µM
Cc1cn([C@H]2C[C@H](N=[N+]=[N-])[C@@H](CO)O2)c(=O)[nH]c1=O,MM + M/M,-,BaL,antigen,-,0.005 µM
Cc1cn([C@H]2C[C@H](N=[N+]=[N-])[C@@H](CO)O2)c(N)nc1=O,CEM-F + CEM,-,-,p24,-,12 µM
Cc1cn([C@H]2C=C[C@@H](CO)O2)c(=O)[nH]c1=O,CEM/TK-,-,-,syncytia,-,57.8 µM
Cc1cn2c(nc1=O)OC[C@H]1O[C@@H]2C[C@@H]1N=[N+]=[N-],CEM-F + CEM,-,-,p24,-,0.56 µM
CNc1ccc(Cl)cc1S(=O)(=O)c1ccccc1[N+](=O)[O-],CEMx174 + CEM,-,IIIB,XTT,-,0.3 µM
Cc1cn([C@H]2C[C@H](N=[N+]=[N-])[C@@H](CO)O2)c(=O)[nH]c1=O,CEM/TK-,-,-,syncytia,-,>100 µM
Cc1cn([C@H]2C[C@H](N=[N+]=[N-])[C@@H](COC(=O)c3cnc[nH]3)O2)c(=O)[nH]c1=O,CEM + CME-SS,-,-,cytopathic effect / XTT,-,0.31 µM
[N-]=[N+]=N[C@H]1C[C@H](n2cc(I)c(=O)[nH]c2=O)O[C@@H]1CO,CEM-F + CEM,-,-,p24,-,12.6 µM
Nc1ncnc2c1ncn2[C@H]1CC[C@@H](CO)O1,MM + M/M,-,BaL,antigen,-,1 µM
CC(C)OC(=O)OCOP(=O)(CO[C@H](C)Cn1cnc2c(N)ncnc21)OCOC(=O)OC(C)C,TZM-gfp,A114S/A502V,NL4-3,GFP,-,0.02 µM
O=c1[nH]cnc2c1ncn2C1CC[C@@H](CO)O1,Primary T lymphocytes,K65R,-,p24 / ELISA,-,21.2 µM
Cc1cn([C@H]2CC[C@@H](CO)O2)c(=O)[nH]c1=O,MT-4-6C + MT-4,-,-,plaque count,-,100 µM
O=C(Nc1nc2ccc([N+](=O)[O-])cc2s1)c1ccc([N+](=O)[O-])s1,CEM-GXR,-,NL4-3,flow cytometry,-,2.4 µM
COC(=O)C(=O)N1CCC[C@H]1C(=O)N[C@@H](Cc1ccccc1)C(=O)OCc1ccccc1,MOLT-4 (HIV-1 IIIB) / M8166 + MOLT-4,-,IIIB,syncytia,-,>150 µM
COC(=O)[C@H](C)NP(=O)(OC[C@@H]1C=C[C@H](n2cnc3c(N)ncnc32)O1)Oc1ccccc1,MM + M/M,-,BaL,antigen,-,0.008 µM
Nc1ncnc2c1ncn2[C@H]1CC[C@@H](CO)O1,Monocytes/macrophages,-,-,-,-,0.17 µM
CCCCCCCCCC(=O)O[C@@]12[C@H](OCOC)[C@@H](C)[C@@]3(O)[C@@H](C=C(CO)C[C@]4(O)C(=O)C(C)=C[C@@H]34)[C@@H]1C2(C)C,MT-4 + mouse plasma + MT-4,-,IIIB,cytopathic effect / MTT,-,<0.1 µg/mL
Cc1cn([C@H]2C=C[C@@H](COP(=O)(Nc3cc(C(=O)Nc4cc(C(=O)NCCC(=N)N)n(C)c4)n(C)c3)OC(C)C)O2)c(=O)[nH]c1=O,CEM/TK-,-,-,syncytia,-,2.01 µM
CC(=O)CC(c1ccccc1)c1c(O)c2ccccc2oc1=O,ACH-2/HIV-1 + ACH2,-,-,p24 / ELISA,-,10 µM
Nc1nc(N)c2ncn(CCOCP(=O)(O)O)c2n1,C3,-,LAV,RT activity,-,0.2 µM
Cc1cn([C@H]2C[C@H](N=[N+]=[N-])[C@@H](COP(=O)(Nc3cc(C(=O)NCCC(=N)N)n(C)c3)OC3CCCCC3)O2)c(=O)[nH]c1=O,CEM/TK-,-,-,syncytia,-,0.133 µM
CCCCN1C(=O)CCC1C(=O)OC[C@H]1O[C@@H](n2cc(C)c(=O)[nH]c2=O)C[C@@H]1N=[N+]=[N-],CEM + CME-SS,-,-,cytopathic effect / XTT,-,0.085 µM
NS(=O)(=O)c1ccc(Oc2ccc(NC(=O)N[C@@H]3[C@@H]4CCc5c(F)ccc(F)c5[C@@H]43)cc2)cc1,MT-4 cells,L100I,IIIB,ELISA,-,0.009 µM
Cc1cn([C@H]2C[C@H](N=[N+]=[N-])[C@@H](CO)O2)c(=O)[nH]c1=O,CEM + CEM-SS,RT-K101E,NL4-3 1 (RT K101E),XTT,-,0.002 µM
Cc1ccnc2c1NC(=O)c1cccnc1N2C1CC1,U-937,-,IIIB,cytopathic effect / XTT,-,0.34 µM
CC(=O)c1ccc(C)cc1NC(C(N)=O)c1c(Cl)cccc1Cl,CEM + CEM-SS,RT-L100I T139I,Costatolide-resistant (RT L100I T139I),XTT,-,0.09 µM
COc1c(CC=C(C)C)c(O)cc2oc(=O)c(-c3ccc(O)cc3O)cc12,MOLT-4/OKM-1(HIV-1) + MOLT-4,-,-,syncytia,-,<20 µg/mL
c1ccc2c(c1)sc1nccn12,U-937,-,IIIB,cytopathic effect / XTT,-,0.59 µM
Cc1cn([C@H]2CC[C@@H](CO)O2)c(=O)[nH]c1=O,CEM-F + CEM,-,-,p24,-,0.38 µM
COc1c2c(cc3oc(=O)c(-c4ccc(O)cc4O)cc13)OC(C)(CO)CC2,MOLT-4/OKM-1(HIV-1) + MOLT-4,-,-,syncytia,-,<20 µg/mL
Cc1nc2ccccc2n1C1CCN(CC[C@H](NC(=O)C2CCC2)c2ccccc2)CC1,PM1,-,BAL R5,-,-,<0.073 µM
COc1cc(-c2c3nc(c(-c4cc(OC)c(OC)c(OC)c4)c4ccc([n-]4)c(-c4cc(OC)c(OC)c(OC)c4)c4ccc([n-]4)c(-c4cc(OC)c(OC)c(OC)c4)c4nc2C=C4)C=C3)cc(OC)c1OC.[O]=[V+2],HUT/CCR5 + HUT,-,BaL,p24,7 d,<5 µM
Cc1ccnc2c1NC(=O)c1cccnc1N2C1CC1,-,K103N,-,RT activity / fluorescence,-,>42 µM
Cc1cn([C@H]2C[C@H](N=[N+]=[N-])[C@@H](CO)O2)c(=O)[nH]c1=O,PBMC,-,8618 CLADE B CLADE B,p24,-,0.017 µM
O=C(OC[C@@H]1CC[C@H](n2cnc3c(=O)[nH]cnc32)O1)C(=O)N1CCCC1C(=O)N[C@H](Cc1ccccc1)C(=O)OCc1ccccc1,MOLT-4 (HIV-1 IIIB) / M8166 + MOLT-4,-,IIIB,syncytia,-,>150 µM
Cc1cn([C@H]2C[C@H](N=[N+]=[N-])[C@@H](COC(=O)C3CN(C)C(=O)N3C)O2)c(=O)[nH]c1=O,CEM + CME-SS,-,-,cytopathic effect / XTT,-,0.1 µM
Nc1ccn([C@@H]2CC[C@H](CO)O2)c(=O)n1,HT4 + HT4 LacZ-1,RT-M184V,184V (RT-M184V),-,-,180 µM
Cc1cn([C@H]2C[C@H](N=[N+]=[N-])[C@@H](CO)O2)c(=O)[nH]c1=O,Macrophage,-,IIIB,cytopathic effect / XTT,-,0.026 µM
Nc1nc(=O)n([C@@H]2CC[C@H](CO)O2)cc1F,HT4 + HT4 LacZ-1,-,HXB2,-,-,0.4 µM
Cc1cn([C@H]2C[C@H](N=[N+]=[N-])[C@@H](COC(=O)CCC(=O)OC3CN(Cc4ccccc4)C(=O)N(Cc4ccccc4)C3)O2)c(=O)[nH]c1=O,CEM + CME-SS,-,-,cytopathic effect / XTT,-,0.074 µM
CC(C)CC(NC(=O)C(Cc1ccccc1)NC(=O)C(N)CO)C(=O)NC(C(=O)O)C(C)O,MOLT-4 (HIV-1 IIIB) / M8166 + MOLT-4,-,IIIB,syncytia,-,158 µM
Cc1cn([C@H]2C[C@H](N=[N+]=[N-])[C@@H](COP(=O)(Nc3cc(C(=O)Nc4cc(C(=O)Nc5cc(C(=O)NCCC#N)n(C)c5)n(C)c4)n(C)c3)OC3CCCCC3)O2)c(=O)[nH]c1=O,CEM/TK-,-,-,syncytia,-,2.19 µM
CCCCCCCCCC(=O)O[C@@]12[C@H](OC(C)=O)[C@@H](C)[C@@]3(O)[C@@H](C=C(CO)C[C@]4(O)C(=O)C(C)=C[C@@H]34)[C@@H]1C2(C)C,MT-4 + mouse plasma + MT-4,-,IIIB,cytopathic effect / MTT,-,0.0707 µg/mL
COc1ccc(CN[C@@H](C(=O)N[C@H](C(=O)NCc2nc3ccccc3[nH]2)C(C)C)[C@H](O)[C@H](Cc2ccccc2)NC(=O)[C@@H](NC(=O)OCc2ccccc2)C(C)(C)C)cc1,Monocytes + Monocyte,-,D747,p24,clinical isolate,0.023 µM
Cc1occc1C(=S)Nc1ccc(Cl)c(/C=N/OC(C)(C)C)c1,MOLT,-,HE,cytopathic effect,-,0.08 µg/mL
CC(=O)c1cccc(C(=O)COCCCCCCCCOP(=O)(OC[C@H]2OC(O)[C@H](O)[C@@H](O)[C@@H]2O)OC[C@H]2O[C@@H](n3cc(C)c(=O)[nH]c3=O)C[C@@H]2N=[N+]=[N-])n1,CEM + CEM-4,-,LAI,cytopathic effect / MTT,-,0.8 µM

Rows are shuffled and stem from different studies. ECn is the concentration giving n% inhibition of infection, replication or growth.